# Potato spindle tuber viroid, loop 15: variant abundance in plants

PSTVd intermediate strain, loop 15: wild type GGAAACCGCUACUAC, pool pattern GGAAACCGNNNNNNC; upper and lower strand joined, each 5' to 3', the first 7 letters being the upper strand, closing pairs included.

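A pool of all variants was put on leaves of three Nicotiana benthamiana plants. Samples came from the inoculated region at 5 days, the leaf margin at 10 and upper systemic leaves at 12.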

Numbers give reads per thousand; 0 = not seen among the reads, higher = more abundant. Each site shows the three plants. "Pool" is the share in the plasmid pool used as inoculum, on the same scale. The inoculated region was read from the minus strand, the other sites from the plus strand. Sequences that differ at fixed positions probably stem from PCR or sequencing errors, and defective variants can be carried along by functional ones. Samples held 43,870 to 66,106 reads, so the smallest values rest on one or two reads. Wild type was 33.9 per thousand in the pool and the most common sequence in every sample (inoculated region 202, 200, 159; leaf margin 724, 746, 710; systemic leaves 856, 883, 880).

sequence	pool	inoculated region	leaf margin	systemic leaves
GGAAACCGCAUGACC	0.0320	0.164 / 0.129 / 0.114	0 / 0.0445 / 0.0200	0 / 0 / 0
GGAAACCGCAUGAGC	0.304	0.0983 / 0.0803 / 0.114	0.0162 / 0 / 0	0 / 0 / 0
GGAAACCGCAUGAUC	0.192	0.262 / 0.161 / 0.209	0.0162 / 0.0445 / 0	0 / 0 / 0
GGAAACCGCAUGCAC	0.192	0.147 / 0.0482 / 0.0952	0 / 0 / 0	0 / 0 / 0
GGAAACCGCAUGCCC	0.208	0.0655 / 0.112 / 0.0952	0 / 0.0223 / 0.0401	0 / 0 / 0
GGAAACCGCAUGCGC	0.176	0.131 / 0.0482 / 0.0762	0 / 0 / 0	0 / 0 / 0
GGAAACCGCAUGCUC	0.224	0.0983 / 0.0964 / 0.0762	0 / 0 / 0.0200	0 / 0 / 0
GGAAACCGCAUGGAC	0.240	0.197 / 0.0803 / 0.0762	0 / 0 / 0	0 / 0 / 0
GGAAACCGCAUGGCC	0.208	0.0819 / 0.0964 / 0.133	0 / 0.0223 / 0	0 / 0 / 0
GGAAACCGCAUGGGC	0.272	0.0328 / 0.0803 / 0.0952	0 / 0 / 0	0 / 0 / 0
GGAAACCGCAUGGUC	0.176	0.0819 / 0.0482 / 0.0762	0.0162 / 0.0223 / 0.0401	0 / 0 / 0
GGAAACCGCAUGUAC	0.272	0.360 / 0.305 / 0.362	0.146 / 0.0668 / 0.140	0 / 0.106 / 0.0684
GGAAACCGCAUGUCC	0.176	0.0328 / 0.0964 / 0.0762	0 / 0 / 0.0200	0 / 0 / 0
GGAAACCGCAUGUGC	0.272	0.164 / 0.112 / 0.0381	0.0162 / 0 / 0.0401	0 / 0 / 0
GGAAACCGCAUGUUC	0.192	0.328 / 0.289 / 0.305	0.162 / 0.0891 / 0.160	0.0161 / 0 / 0
GGAAACCGCAUUAAC	0.144	0.0655 / 0.112 / 0.133	0.0162 / 0 / 0.0401	0 / 0 / 0
GGAAACCGCAUUACC	0.352	0.0819 / 0.0643 / 0.0571	0 / 0 / 0	0 / 0 / 0
GGAAACCGCAUUAGC	0.128	0.115 / 0.0482 / 0.133	0 / 0 / 0.0200	0 / 0 / 0
GGAAACCGCAUUAUC	0.240	0.164 / 0.112 / 0.114	0 / 0 / 0	0 / 0 / 0
GGAAACCGCAUUCAC	0.128	0.0491 / 0.161 / 0.114	0 / 0 / 0	0 / 0 / 0
GGAAACCGCAUUCCC	0.240	0.180 / 0.0482 / 0.0571	0 / 0 / 0	0 / 0 / 0
GGAAACCGCAUUCGC	0.112	0.0655 / 0.129 / 0.133	0 / 0 / 0	0 / 0 / 0
GGAAACCGCAUUCUC	0.240	0.0655 / 0.112 / 0.0381	0 / 0.0223 / 0.0200	0.0161 / 0 / 0
GGAAACCGCAUUGAC	0.112	0.0655 / 0.0803 / 0.133	0.0162 / 0 / 0	0.0161 / 0 / 0
GGAAACCGCAUUGCC	0.224	0.131 / 0.0803 / 0.114	0.0162 / 0 / 0	0 / 0 / 0
GGAAACCGCAUUGGC	0.208	0.147 / 0.145 / 0.0952	0 / 0 / 0	0 / 0 / 0
GGAAACCGCAUUGUC	0.256	0.0819 / 0.129 / 0.0571	0 / 0 / 0	0 / 0 / 0
GGAAACCGCAUUUAC	0.208	0.180 / 0.112 / 0.0762	0.0162 / 0 / 0	0 / 0 / 0
GGAAACCGCAUUUCC	0.416	0.131 / 0.0803 / 0.0952	0 / 0 / 0.0200	0.0161 / 0 / 0
GGAAACCGCAUUUGC	0.240	0.180 / 0.0964 / 0.0762	0 / 0 / 0	0 / 0 / 0
GGAAACCGCAUUUUC	0.288	0.164 / 0.112 / 0.0762	0 / 0.0445 / 0.0200	0.0161 / 0.0151 / 0
GGAAACCGCCAAAAC	0.224	0.311 / 0.305 / 0.362	0.178 / 0.0445 / 0.120	0.0644 / 0.0605 / 0.0684
GGAAACCGCCAAACC	0.336	0.164 / 0.0643 / 0.0571	0.0162 / 0 / 0.0200	0 / 0 / 0
GGAAACCGCCAAAGC	0.112	0.164 / 0.129 / 0.133	0.0162 / 0 / 0.0200	0 / 0 / 0
GGAAACCGCCAAAUC	0.288	0.311 / 0.498 / 0.248	0.162 / 0.0223 / 0	0.0483 / 0 / 0
GGAAACCGCCAACAC	0.192	0.311 / 0.209 / 0.438	0.113 / 0.0668 / 0.160	0.0322 / 0.0908 / 0.0684
GGAAACCGCCAACCC	0.272	0.164 / 0.0803 / 0.0762	0 / 0 / 0.0401	0 / 0 / 0
GGAAACCGCCAACGC	0.304	0.0491 / 0.0964 / 0.0762	0 / 0 / 0.0200	0 / 0 / 0.0228
GGAAACCGCCAACUC	0.160	0.262 / 0.386 / 0.476	0.194 / 0.0891 / 0.140	0.0805 / 0.0303 / 0.160
GGAAACCGCCAAGAC	0.368	0.278 / 0.289 / 0.286	0.113 / 0.134 / 0.160	0.0483 / 0 / 0
GGAAACCGCCAAGCC	0.112	0.0819 / 0.0964 / 0	0.0162 / 0 / 0	0.0161 / 0 / 0
GGAAACCGCCAAGGC	0.176	0.0819 / 0.0643 / 0.0190	0 / 0.0223 / 0	0 / 0 / 0
GGAAACCGCCAAGUC	0.368	0.328 / 0.321 / 0.190	0.0808 / 0.0891 / 0.100	0.0644 / 0 / 0
GGAAACCGCCAAUAC	0.448	0.262 / 0.257 / 0.343	0.146 / 0.0223 / 0.0801	0.0483 / 0.0454 / 0.0456
GGAAACCGCCAAUCC	0.240	0.344 / 0.193 / 0.343	0.178 / 0.0668 / 0.140	0.0644 / 0 / 0
GGAAACCGCCAAUGC	0.0800	0.262 / 0.353 / 0.305	0.146 / 0.0668 / 0.140	0.0644 / 0.0605 / 0.114
GGAAACCGCCAAUUC	0.208	0.360 / 0.466 / 0.362	0.129 / 0.0891 / 0.120	0.0644 / 0.0756 / 0.0684
GGAAACCGCCACAAC	0.464	0.328 / 0.369 / 0.514	0.0808 / 0.111 / 0.140	0.0161 / 0.0605 / 0.205
GGAAACCGCCACACC	0.272	0.0491 / 0.145 / 0.0762	0 / 0.0223 / 0.0200	0 / 0 / 0
GGAAACCGCCACAGC	0.272	0.0491 / 0.129 / 0.0952	0 / 0 / 0	0 / 0 / 0
GGAAACCGCCACAUC	0.352	0.0819 / 0.0964 / 0.133	0 / 0.0223 / 0.0200	0 / 0 / 0
GGAAACCGCCACCAC	0.160	0.262 / 0.257 / 0.438	0.0970 / 0.134 / 0.160	0.0483 / 0.0151 / 0.114
GGAAACCGCCACCCC	0.192	0.147 / 0.0803 / 0.0952	0 / 0.0223 / 0.0200	0 / 0 / 0

The opening 5 entries, copied out:

| sequence | pool | inoculated region | leaf margin | systemic leaves |
|---|---|---|---|---|
| GGAAACCGCAUGACC | 0.0320 | 0.164 / 0.129 / 0.114 | 0 / 0.0445 / 0.0200 | 0 / 0 / 0 |
| GGAAACCGCAUGAGC | 0.304 | 0.0983 / 0.0803 / 0.114 | 0.0162 / 0 / 0 | 0 / 0 / 0 |
| GGAAACCGCAUGAUC | 0.192 | 0.262 / 0.161 / 0.209 | 0.0162 / 0.0445 / 0 | 0 / 0 / 0 |
| GGAAACCGCAUGCAC | 0.192 | 0.147 / 0.0482 / 0.0952 | 0 / 0 / 0 | 0 / 0 / 0 |
| GGAAACCGCAUGCCC | 0.208 | 0.0655 / 0.112 / 0.0952 | 0 / 0.0223 / 0.0401 | 0 / 0 / 0 |

The measurements come from Wu et al. 2024 (doi:10.1371/journal.ppat.1012142).